Measured values taken from article PMC12495412, “Coumarin/nitrogen-bearing heterocyclic hybrid-loaded electrospun PMMA/PVP nanofibrous scaffolds for accelerating topical wound healing rates: synthesis and in vitro bio-evaluation” (RSC Advances, 2025).

What was measured:
MDA cells = experiment: MTT anticancer assay; format: cell-based, human; settings: IC50 Wi-38 / IC50 MDA
Source text: (§1) MTT assay: the normal cell line (Wi-38), colon cancer (Caco-2), lung cancer (A549), and breast cancer (MDA) cell lines were sourced from ATCC, USA. All different cell lines were cultivated and preserved in DMEM medium (SERANA, Germany), accompanied by 10% FBS (Gibco, USA) and 1% Pen/Strep solution (Lonza, USA). The newly prepared derivatives at various doses were considered for their anticancer activity and their safety on normal cells, applying MTT (3-[4, 5-dimethylthiazol]-2, 5-diphenyltetrazolium bromide) methods.[22] At first, all normal and cancer cell lines (1.0 ×10^4) were inoculated in 4 antiseptic 96-well tissue culture microplates and incubated for 24 h in a CO2 incubator. After cell attachments, the prepared derivatives were added to both normal Wi-38 cells at diverse concentrations of (6.25–200 μg mL^−1, 2-fold) and cancer cells at different concentrations of (3.125–100 μg mL^−1, 2-fold) in triplicate and incubated for another 48 h at 37 °C in a CO2 incubator with an adjusted concentration of 5%. After that, the treated cells were cleaned three times with PBS to remove debris and dead cells. Next, 200 μL of 0.5 mg mL^−1 MTT dye solution in PBS was mixed in each well, and the cells were further kept for 3 h at 37 °C in a 5% CO2 incubator. After that, MTT was removed and 200 μL of DMSO was added to each well. The optical density (OD) was recorded at 570 nm via a microplate reader (B.M.G. LabTech, Germany). Basic cells (untreated) were utilized as negative control cells, and 5-fluorouracil (5-FU) was included as a standard chemotherapy drug. The qualified cell viability (%) was evaluated as in equation (eqn (1)):1 Relative cell viability (%) = […] A1 is the OD of the examined derivative, A0 is the OD of the standard, and AU is the OD of the untreated cells.
(§2) Anticancer activity assay: the anticancer effect of each derivative was assessed by evaluating the half-maximal inhibitory concentration (IC50) value via the GraphPad Prism 7.0 software. However, SI (selective index) values of each derivative were estimated by splitting the IC50 value of healthy cells by the IC50 value of malignant cells, as previously reported.[23] The effects of the created derivatives on the morphology of MDA cells were evaluated at IC50 doses and captured by phase-contrast microscopy (Olympus, Germany) in comparison to untreated control cells.

A549 cells = experiment: MTT anticancer assay; format: cell-based, human; settings: IC50 Wi-38 / IC50 A549
Source text: as §1, §2

SMILES | SI MDA (MDA cells) | SI A549 (A549 cells)
O=c1[nH]cc(F)c(=O)[nH]1 [Compound 5-FU, 5-fluorouracil, reference compound] | 0.89 ± 0.02 | 0.92 ± 0.03
Nc1ccc(Nc2ccnc3cc(Cl)ccc23)cc1 [Compound A1] | 11.76 ± 0.94 | 5.47 ± 0.44
O=C(Nc1ccc(Nc2ccnc3cc(Cl)ccc23)cc1)c1cc2ccccc2oc1=O [Compound A, N-(4-((7-chloroquinolin-4-yl)amino)phenyl)-2-oxo-2H-chromene-3-carboxamide] | 25.44 ± 2.21 | 12.11 ± 1.05
Nc1ccc(Nc2c3ccccc3nc3ccccc23)cc1 [Compound B1] | 21.86 ± 1.62 | 11.52 ± 0.85
O=C(Nc1ccc(Nc2c3ccccc3nc3ccccc23)cc1)c1cc2ccccc2oc1=O [Compound B, N-(4-(acridin-9-ylamino)phenyl)-2-oxo-2H-chromene-3-carboxamide] | 29.58 ± 2.56 | 18.09 ± 1.57
Cc1ccc(-c2nnc(Nc3ccc(N)cc3)c3ccccc23)cc1 [Compound C1] | 13.78 ± 1.21 | 9.17 ± 0.79
Cc1ccc(-c2nnc(Nc3ccc(NC(=O)c4cc5ccccc5oc4=O)cc3)c3ccccc23)cc1 [Compound C, 2-oxo-N-(4-((4-(p-tolyl)phthalazin-1-yl)amino)phenyl)-2H-chromene-3-carboxamide] | 22.59 ± 1.93 | 11.25 ± 1.04
